Data published in patent US11779630B2, “Peptides and methods of using the same” (SERPIN PHARMA, LLC, priority 2020, dated 2023).
In brackets after ≈: the same amount, converted by molar mass.

Key:
[1] = system: Microglia with HIV on a BBB insert; test: HIV induced cytokines in microglia on 3D-BBB trans-well insert; format: cell-based; details: increasing concentrations up to 100 μg/ml, 24 hours
[2] = system: LPS stimulated human immune cells (THP1 monocytes); format: cell-based; details: various doses and time-points
[3] = system: VEEV TC83 luciferase virus
[4] = system: EEEV nano-luciferase reporter virus; details: 16 h
Rift Valley fever virus = details: Vero 76
[5] = system: Western equine encephalitis virus; details: Vero 76
Influenza A H1N1 = details: MDCK
Yellow Fever Virus = details: Huh7

Structure (SMILES): CCCC[C@H](NC(=O)[C@H](CC(C)C)NC(=O)[C@H](Cc1ccccc1)NC(=O)[C@@H](NC(=O)[C@H](Cc1ccccc1)NC(=O)[C@@H]1CCCN1C(=O)[C@H](CCCCN)NC(=O)[C@H](CC(N)=O)NC(=O)[C@H](Cc1ccccc1)NC(=O)[C@H](CCCCN)NC(=O)[C@@H](NC(C)=O)C(C)C)C(C)C)C(=O)N[C@H](C(=O)N[C@@H](CCC(=O)O)C(=O)N[C@@H](CCC(N)=O)C(=O)N[C@@H](CC(N)=O)C(=O)N[C@H](C(=O)N[C@@H](CCCCN)C(N)=O)[C@@H](C)O)[C@@H](C)CC [VKFNKPFVFL[Nle]IEQNTK]
- HIV induced IL-6, MCP-1 and IL-8 [1]: significantly decreased
- top canonical pathways changed by LPS, VEEV or Rift Valley Fever Virus [2]: counteracted these changes, restoring the profile back to a normal state
- VEEV replication (luminescence) [3]: reduced VEEV replication
- EC50, VEEV replication ([3]; 16 h): 67.12 µg/mL (≈ 31.9 µM)
- EC50, EEEV replication [4]: 0.84 µg/mL (≈ 0.399 µM)
- EC50 (Rift Valley fever virus): 17 µg/mL (≈ 8.07 µM)
- EC50 [5]: 63 µg/mL (≈ 29.9 µM)
- EC50 (Influenza A H1N1): 47 µg/mL (≈ 22.3 µM)
- EC50 (Yellow Fever Virus): 47 µg/mL (≈ 22.3 µM)
